Pooled drug test results. Numbers come from NIAID ChemDB, via PubChem.

Common to all: tests in culture; agent: Candida albicans; endpoint: MIC

Neighbouring rows are from separate reports.

SMILES | strain or isolate | result
O=c1ccc2cc(I)ccc2o1 | ATCC 14053 | 500 µg/mL
Cc1c(N2CCC[C@H]2CN)c(F)cn2c(=O)c(C(=O)O)cc(C3CC3)c12 | CCH442 | >100 µg/mL
Cc1cnccc1CCCc1ccccc1 | 2005E | 8 µg/mL
Cc1c(N2CCC(C3(N)CC3)C2)c(F)cn2c(=O)c(C(=O)O)cc(C3CC3)c12.Cl | CCH442 | 50 µg/mL
COc1cccc(CCC2CCCC3=C2CCN(C)C3)c1 | C316 | 62 µg/mL
Cc1c(N2CC3CCCN(C)C3C2)c(F)cn2c(=O)c(C(=O)O)cc(C3CC3)c12.Cl | CCH442 | 0.1 µg/mL
CC[C@H]1OC(=O)C=C2C1=CC1OC(=O)[C@@]3(C)CCC[C@@]2(C)[C@@H]13 | ATCC 90029 | 8 µg/mL
Cc1c(N2CCC[C@H](N)C2)c(F)cn2c(=O)c(C(=O)O)cc(C3CC3)c12 | CCH442 | >100 µg/mL
C[C@@]12CCC[C@]3(C)C4=CC(=O)OC[C@]45O[C@@H]5C(OC1=O)[C@@H]23 | ATCC 90028 | 32 µg/mL
CN(C/C=C/C#CC(C)(C)C)Cc1cccc2ccccc12 | DAY364 (genotype CNB1/CNB1) | 0.39 µg/mL
COc1cc2oc(=O)ccc2c2c1C=CC(C)(C)O2 | ATCC 14053 | 500 µg/mL
CC(=O)N1CCN(c2ccc(OC[C@H]3CO[C@](Cn4ccnc4)(c4ccc(Cl)cc4Cl)O3)cc2)CC1 | Isogenic isolate 15 Erg11 (4-5X) R467K | 0.03 µg/mL
CN1CCC2=C(CCCC2CCc2ccc(Cl)c(Cl)c2)C1 | 2402E | 31 µg/mL
N#Cc1ccc2oc(=O)ccc2c1 | ATCC 14053 | 500 µg/mL
Cc1c(N2CCNCC2)c(F)cn2c(=O)c(C(=O)O)cc(C3CC3)c12 | CCH442 | >100 µg/mL
CC[C@@H](NC)[C@@H]1CCN(c2c(F)cn3c(=O)c(C(=O)O)cc(C4CC4)c3c2C)C1.Cl | CCH442 | >100 µg/mL
COc1ccc(CCC2CCCC3=C2CCN(C)C3)cc1 | C316 | 62 µg/mL
CC1=C(N2CCC(ON)C2)C(F)=CN2C(=O)C(C(=O)O)=CC(C3CC3)C12 | CCH442 | 100 µg/mL
CN1CCC2=C(CCCC2CCc2ccccc2)C1 | 2402E | 31 µg/mL
C[C@@H]1[C@H](O)[C@@H](C)/C=C/C=C/CC/C=C/C=C/C=C/C=C/C(O[C@H]2O[C@H](C)[C@@H](O)[C@H](N)[C@@H]2O)CC2O[C@](O)(CC(O)C(O)CCC(O)CC(O)CC(O)CC(=O)O[C@H]1C)CC(O)C2C(=O)O | MTCC 3958 | 150 µg/mL
Cc1cnccc1CCCc1ccc(F)cc1 | C316 | 31 µg/mL
Cc1c(N2CCC(CC3CC3N)C2)c(F)cn2c(=O)c(C(=O)O)cc(C3CC3)c12 | CCH442 | >100 µg/mL
Cc1c(N2C[C@@H]3CCC[C@H](N)[C@H]3C2)c(F)cn2c(=O)c(C(=O)O)cc(C3CC3)c12.Cl | CCH442 | >100 µg/mL
Cc1c(N2CCC(N3CCCCC3)CC2)c(F)cn2c(=O)c(C(=O)O)cc(C3CC3)c12.O=C(O)C(F)(F)F | CCH442 | >100 µg/mL
Cc1c(N2CCN(c3ccccn3)CC2)c(F)cn2c(=O)c(C(=O)O)cc(C3CC3)c12 | CCH442 | >100 µg/mL
Cc1c(N2C[C@@H]3C(N)[C@@H]3C2)c(F)cn2c(=O)c(C(=O)O)cc(C3CC3)c12 | CCH442 | >100 µg/mL
CN1CCC2=C(CCCC2CCc2cccc(Cl)c2)C1 | 1208E | 31 µg/mL
Cc1c(N2C[C@@H](N)[C@H](C(F)(F)F)C2)c(F)cn2c(=O)c(C(=O)O)cc(C3CC3)c12.Cl | CCH442 | >100 µg/mL
CC1=C(N2CC3(CC(N)C3)C2)C(F)=CN2C(=O)C(C(=O)O)=CC(C3CC3)C12 | CCH442 | >100 µg/mL
O=c1ccc2cc(C(O)O)ccc2o1 | ATCC 14053 | 1000 µg/mL
CN1CCC2=C(CCCC2CCc2ccc(Cl)cc2)C1 | 2005E | 8 µg/mL
C[C@@H]1C[C@@H]([C@H](O)CC2CC(=O)NC(=O)C2)C(=O)[C@@H](C)C1 | Isolate 3 | 0.27 µM

The first 4 rows once more:

SMILES,strain or isolate,result
O=c1ccc2cc(I)ccc2o1,ATCC 14053,500 µg/mL
Cc1c(N2CCC[C@H]2CN)c(F)cn2c(=O)c(C(=O)O)cc(C3CC3)c12,CCH442,>100 µg/mL
Cc1cnccc1CCCc1ccccc1,2005E,8 µg/mL
Cc1c(N2CCC(C3(N)CC3)C2)c(F)cn2c(=O)c(C(=O)O)cc(C3CC3)c12.Cl,CCH442,50 µg/mL